Measured values from several laboratories, pooled; numbers as filed in NIAID ChemDB.

All rows: tests in culture

An empty or dashed field is not shown. Inhibition is in % at the dose shown (toxicity tests: loss of growth or viability). A number after MIC or MFC names an inhibition level or a share of isolates. ECn: concentration that inhibits the pathogen or its effect by n%. Conditions beyond the fields shown may differ between rows.

smiles | species | read-out | dose | method | cells | strain | result
CCO/N=C/c1ccc(OCCC2CCN(c3ccc(Cl)nn3)CC2)cc1 | Rhinovirus | EC50 | - | neutral red | KB | FO 1-3774 (ICAM-1 receptor group 54) | 0.003 µM
Cc1cc(CCCOc2c(C)cc(-c3noc(C(F)(F)F)n3)cc2C)on1 | Rhinovirus | EC50 | - | cytopathic effect / visual reading | OHIO HELA-I | Isolate 3 | 0.02 µg/mL
Oc1ccccc1N=Cc1ccc2c(c1)OCO2 | Cryptococcus gattii | MIC99 | - | - | - | 29/10893 | 8 µg/mL
Nc1nc2c(ncn2COCCO)c(=O)[nH]1 | Varicella zoster virus | inhibition | 1 µg/mL | plaque count | HELF | OKA | 57%
O=[N+]([O-])c1ccc(C=Nc2ccccc2O)cc1 | Cryptococcus gattii | MIC99 | - | - | - | 547/OTTI-97-PI-10 | 16 µg/mL
O=C(Nc1ccc(S(=O)(=O)[O-])c2cccc(S(=O)(=O)[O-])c12)c1ccccc1 | Adenovirus | inhibition | 10 µg/mL | cytopathic effect | Human amnion AV3 cells | TYPE 3 | 0%
CCOC(=O)c1c(C)nc(NCCCCNc2ccnc3cc(Cl)ccc23)nc1-c1ccc(F)cc1 | Cryptococcus neoformans | MIC99 | - | - | - | 27JF | 16 µg/mL
Nc1c(S(=O)(=O)[O-])cc2cc(S(=O)(=O)[O-])ccc2c1O | Herpes simplex virus | inhibition | 10 µg/mL | cytopathic effect | Human conjunctiva cells | - | 0%
O=c1[nH]c(=O)n([C@@H]2O[C@H](CO)[C@@H](O)[C@@H]2O)cc1/C=C/Cl | Varicella zoster virus | inhibition | 0.0001 µg/mL | plaque count | HELF | Asahikawa | 29%
O=S(=O)([O-])c1cc(S(=O)(=O)[O-])c2cc(NS(=O)(=O)c3ccccc3)ccc2c1 | Herpes simplex virus | inhibition | 50 µg/mL | cytopathic effect | Human amnion AV3 cells | - | 10%
CCc1cn([C@@H]2O[C@H](CO)[C@@H](O)[C@@H]2O)c(=O)[nH]c1=O | Varicella zoster virus | inhibition | 10 µg/mL | plaque count | HELF | YS | 0%
O=S(=O)([O-])c1ccc(NS(=O)(=O)c2ccccc2)c2c(S(=O)(=O)[O-])cccc12 | Rhinovirus | inhibition | 10 µg/mL | cytopathic effect | Human embryonic lung cells | - | 60%
CC(C)(O)c1cn(-c2cccc3ccccc23)nn1 | Candida albicans | inhibition | 2048 µg/mL | broth dilution | - | URM 4990 | 0%
O=[N+]([O-])c1cc([N+](=O)[O-])c2ccc(S(=O)(=O)O)cc2c1O | Herpes simplex virus | inhibition | 5 µg/mL | cytopathic effect | Human amnion AV3 cells | - | 0%
CC(C)(O)c1cn(-c2ccc(Cl)cc2)nn1 | Candida parapsilosis | MIC | - | broth dilution | - | URM 4970 | 128 µg/mL
O=c1[nH]c(=O)n([C@@H]2O[C@H](CO)[C@@H](O)[C@@H]2O)cc1/C=C/Br | Varicella zoster virus | inhibition | 0.001 µg/mL | plaque count | HELF | OKA | 97%
C/C=C\[C@@H]1C[C@H](C(=O)O)N[C@H]1[C@@H](NC(C)=O)[C@](C)(CCC)OC | Influenza A virus | EC50 | - | plaque count | MDCK | H1N1 isolate C31C | ≤0.02 µg/mL
Oc1ccc(O)c(C=Nc2ccccc2O)c1 | Cryptococcus gattii | MIC99 | - | - | - | 135L/03 | 8 µg/mL
C=CCc1ccc(O)c(OC)c1 | Candida tropicalis | MIC90 | - | turbidity | - | ATCC 750 | 485 µg/mL
O=C(Nc1cc(S(=O)(=O)O)cc2cc(S(=O)(=O)O)cc(O)c12)c1ccccc1 | Herpes simplex virus | inhibition | 10 µg/mL | cytopathic effect | Human amnion AV3 cells | - | 33%
CCC(CC)O[C@@H]1C=C(C(=O)O)C[C@H](N)[C@H]1NC(C)=O | Influenza A virus | EC50 | - | - | MDCK | Influenza A/Johannesburg/33/94 (H3N2) | 0.5 µM
O=S(=O)([O-])c1ccc2c(S(=O)(=O)[O-])cc(S(=O)(=O)[O-])cc2c1 | Adenovirus | inhibition | 10 µg/mL | cytopathic effect | Human amnion AV3 cells | TYPE 3 | 0%
Cc1ccc(-n2cc(C(C)(C)O)nn2)cc1C | Candida albicans | inhibition | 2048 µg/mL | broth dilution | - | URM 4387 | 0%
Cc1cn([C@@H]2O[C@H](CO)[C@@H](O)[C@@H]2O)c(=O)[nH]c1=O | Varicella zoster virus | inhibition | 0.1 µg/mL | plaque count | HELF | OKA | 16%
O=S(=O)([O-])c1cccc(O)c1 | Adenovirus | inhibition | 10 µg/mL | cytopathic effect | Human embryonic lung cells | TYPE 3 | 0%
CC(C)(O)c1cn(-c2ccc([N+](=O)[O-])cc2)nn1 | Candida parapsilosis | inhibition | 2048 µg/mL | broth dilution | - | ATCC 22019 | 0%
Cc1ccc(C(=O)Nc2ccc(S(=O)(=O)O)c3cc(S(=O)(=O)O)cc(S(=O)(=O)O)c23)cc1NC(=O)c1cccc(NC(=O)Nc2cccc(C(=O)Nc3cc(C(=O)Nc4ccc(S(=O)(=O)O)c5cc(S(=O)(=O)O)cc(S(=O)(=O)O)c45)ccc3C)c2)c1 | Adenovirus | inhibition | 5 µg/mL | cytopathic effect | Human amnion AV3 cells | TYPE 3 | 0%
Oc1ccccc1N=Cc1cccc(O)c1O | Cryptococcus gattii | MIC99 | - | - | - | 1913 ER | 11.3 µg/mL

For reference, 2 entries again:

| smiles | species | read-out | dose | method | cells | strain | result |
|---|---|---|---|---|---|---|---|
| O=c1[nH]c(=O)n([C@@H]2O[C@H](CO)[C@@H](O)[C@@H]2O)cc1/C=C/Br | Varicella zoster virus | inhibition | 0.001 µg/mL | plaque count | HELF | OKA | 97% |
| Cc1ccc(C(=O)Nc2ccc(S(=O)(=O)O)c3cc(S(=O)(=O)O)cc(S(=O)(=O)O)c23)cc1NC(=O)c1cccc(NC(=O)Nc2cccc(C(=O)Nc3cc(C(=O)Nc4ccc(S(=O)(=O)O)c5cc(S(=O)(=O)O)cc(S(=O)(=O)O)c45)ccc3C)c2)c1 | Adenovirus | inhibition | 5 µg/mL | cytopathic effect | Human amnion AV3 cells | TYPE 3 | 0% |